Anti-infective test results gathered from many reports (values: NIAID ChemDB through PubChem).

Common to all: tests on isolated targets; species: HIV-1; target: Integrase; endpoint: inhibition

Neighbouring rows are from separate reports.

structure,dose,read by,result
COC(=O)[C@H](CCCCNC(=O)/C=C/c1ccc(O)c(O)c1)NC(=O)/C=C/c1ccc(O)c(O)c1,10 µM,3′ processing,100%
C#CCNCC(C(=O)OCCCC)C(O)c1cccc(OCC)c1O,10 µM,,36.8%
O=C(NCCC(NC(=O)c1cc(O)c(O)c(O)c1)C(=O)O)c1cc(O)c(O)c(O)c1,10 µM,3′ processing,100%
COc1ccc(CNC(=O)/C=C(\O)C(=O)O)c(OC)c1,70 µM,strand transfer,65%
COC(=O)c1cc(O)c(O)c(O)c1,125 µM,3′ processing,40.1%
C#CCNC/C(=C\c1cccc(OC)c1OCc1ccccc1)C(=O)OC,10 µM,,15.2%
O=C(NCCCC[C@H](NC(=O)c1cc(O)c(O)c(O)c1)C(=O)O)c1cc(O)c(O)c(O)c1,10 µM,3′ processing,100%
Cc1cccc(CNC(=O)/C=C(\O)C(=O)O)c1,70 µM,strand transfer,70%
O=C(/C=C/c1ccc(O)c(O)c1)NCCCC(NC(=O)/C=C/c1ccc(O)c(O)c1)C(=O)O,10 µM,3′ processing,90%
COC(=O)/C(=C/c1cccc(OC)c1OCc1ccccc1)CNCc1cn([C@H]2C[C@H](n3cc(C)c(=O)[nH]c3=O)O[C@@H]2CO)nn1,10 µM,,43.4%
CC(C)(C)c1ccc(CNC(=O)/C=C(\O)C(=O)O)cc1,70 µM,strand transfer,35%
COC(=O)/C(=C/c1ccccc1OCc1ccccc1)CNCc1cn([C@H]2C[C@H](n3cc(C)c(=O)[nH]c3=O)O[C@@H]2CO)nn1,10 µM,,36%
O=C(/C=C(\O)C(=O)O)NCc1cc(F)cc(F)c1,70 µM,strand transfer,60%
COC(=O)[C@H](CCCCNC(=O)c1cc(O)c(O)c(O)c1)NC(=O)c1cc(O)c(O)c(O)c1,10 µM,3′ processing,0%
CCOc1cccc(/C=C(\CNCc2cn([C@H]3C[C@H](n4cc(C)c(=O)[nH]c4=O)O[C@@H]3CO)nn2)C(=O)OC)c1OCc1ccccc1,10 µM,,18.7%

The last 2 rows once more:

COC(=O)[C@H](CCCCNC(=O)c1cc(O)c(O)c(O)c1)NC(=O)c1cc(O)c(O)c(O)c1 ; dose: 10 µM ; read by: 3′ processing ; result: 0%
CCOc1cccc(/C=C(\CNCc2cn([C@H]3C[C@H](n4cc(C)c(=O)[nH]c4=O)O[C@@H]3CO)nn2)C(=O)OC)c1OCc1ccccc1 ; dose: 10 µM ; result: 18.7%

Inhibition is in % at the dose shown (toxicity tests: loss of growth or viability). An empty or dashed field is not shown.